{"source": "patent US10207993B2", "about": "(priority 2014, dated 2019)", "note": "This is a selection: effects in other tests are not listed, and their absence says nothing.", "data": [{"tested_on": "H37Rv", "assay": "Inhibition of Mycobacterium colony growth in THP1 macrophages (CFU counts)", "assay_type": "cell-based, M. tuberculosis", "conditions": "PMA-differentiated THP-1, MOI 10, CFU at 90 hr", "units": {"H37Rv % Inhibition at 500 nM": "%"}, "values": [{"smiles": "CN1CCC(OC(=O)C(O)(c2ccccc2)c2ccccc2)C1", "note": "(centres unmarked)", "H37Rv % Inhibition at 500 nM": 66}, {"smiles": "CCCN1CCCC(OC(=O)C(O)(c2ccccc2)c2ccccc2)C1", "note": "(centres unmarked)", "H37Rv % Inhibition at 500 nM": 51}, {"smiles": "CN(C)C(=O)N1CCCC(OC(=O)C(O)(c2ccccc2)c2ccccc2)C1", "note": "(centres unmarked)", "H37Rv % Inhibition at 500 nM": 66}, {"smiles": "O=C(OC1CCCN(Cc2ccccc2)C1)C(O)(c1ccccc1)c1ccccc1", "note": "(centres unmarked)", "H37Rv % Inhibition at 500 nM": 33}, {"smiles": "O=C(OC1CCCNC1)C(O)(c1ccccc1)c1ccccc1", "note": "(centres unmarked)", "H37Rv % Inhibition at 500 nM": 22}, {"smiles": "CC(=O)N1CCCC(OC(=O)C(O)(c2ccccc2)c2ccccc2)C1", "note": "(centres unmarked)", "H37Rv % Inhibition at 500 nM": 73}, {"smiles": "O=C(OC1CN(Cc2ccccc2)C1)C(O)(c1ccccc1)c1ccccc1", "H37Rv % Inhibition at 500 nM": 77}, {"smiles": "CN1CCC(OC(=O)C(O)(c2ccccc2)c2ccccc2)CC1", "H37Rv % Inhibition at 500 nM": 55}, {"smiles": "O=C(O[C@@H]1CN2CCC1CC2)[C@@H](O)c1ccccc1", "H37Rv % Inhibition at 500 nM": 42}, {"smiles": "O=C(OC1CN2CCC1CC2)[C@@H](O)c1ccccc1", "note": "(some centres unmarked)", "H37Rv % Inhibition at 500 nM": 56}, {"smiles": "O=C(OC1CNC1)C(O)(c1ccccc1)c1ccccc1", "H37Rv % Inhibition at 500 nM": 50}]}]}
